Assay results reported in patent US20230381142A1, “ANTILEISHMANIAL COMPOUNDS, COMPOSITIONS AND USE THEREOF” (TRUSTEES OF BOSTON UNIVERSITY, priority 2022, published 2023).

Each molecule was assayed on L. donovani intracellular amastigotes infecting THP-1 macrophages (assay: GSK intramacrophage L. donovani assay (LD AMMAC, inMac; Assay Conditions C)). Details: (LD MAC EC50)/(LD AMMAC EC50).
Format: cell-based, Leishmania donovani
Summary of the method: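 EC50 values come from counting amastigotes per infected THP-1 macrophage (AMMAC). Parallel read-outs give percentage of infected cells per well (INFCELL) and a macrophage-number toxicity EC50 (MAC).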

| Structure (SMILES) | SI MAC |
| --- | --- |
| COc1ccc(N2C(=O)c3[nH]nc(CC(C)C)c3C2c2cccc(Br)c2)cc1 (stereo not shown) [Compound 60] | 3.2 |
| COc1ccc(N2C(=O)c3[nH]nc(CC(C)C)c3C2c2ccc(F)cc2F)cc1 (stereo not shown) [Compound 63] | 12.6 |
| COC(=O)c1ccc(N2C(=O)c3[nH]nc(CC(C)C)c3C2c2ccc(F)cc2)cc1 (stereo not shown) [Compound 26] | 20.0 |
| Cc1ccc(CN2C(=O)c3[nH]nc(CC(C)C)c3C2c2ccc(F)cc2)o1 (stereo not shown) [Compound 35] | >2.5 |
| CC(C)Cc1n[nH]c2c1C(c1ccc(F)cc1)N(c1ccc3c(c1)OCO3)C2=O (stereo not shown) [Compound 44, 5-(benzo[d][1,3]dioxol-5-yl)-4-(4-fluorophenyl)-3-isobutyl-4,5-dihydropyrrolo[3,4-c]pyrazol-6(1H)-one] | 41.8 |
| COc1ccc(N2C(=O)c3[nH]nc(CC(C)(C)C)c3C2c2ccc(F)cc2)cc1 (stereo not shown) [Compound 10] | 10.0 |
| CC(C)Cc1n[nH]c2c1C(c1ccc(F)cc1)N(C1CCC(N(C)C)CC1)C2=O (stereo not shown) [Compound 37] | >2.0 |
| COc1ccc(N2C(=O)c3[nH]nc(CC(C)C)c3C2c2ccc(C(=O)O)cc2)cc1 (stereo not shown) [Compound 50] | 1.0 |
| COc1ccc(N2C(=O)c3[nH]nc(CC(C)C)c3C2c2cccc(C(F)(F)F)c2)cc1 (stereo not shown) [Compound 62] | 2.5 |
| COc1ccc(N2C(=O)c3[nH]nc(CC(C)C)c3C2c2cccc(OC)c2)cc1 (stereo not shown) [Compound 61] | 5.0 |
| COc1ccc(N2C(=O)c3[nH]nc(CC(C)C)c3C2c2ccccc2Cl)cc1 (stereo not shown) [Compound 55, 4-(2-chlorophenyl)-3-isobutyl-5-(4-methoxyphenyl)-4,5-dihydropyrrolo[3,4-c]pyrazol-6(1H)-one] | 15.3 |
| CC(C)Cc1n[nH]c2c1C(c1ccc(F)cc1)N(c1ccc(F)cc1)C2=O (stereo not shown) [Compound 23] | 4.0 |
| CC(C)Cc1n[nH]c2c1C(c1ccc(F)cc1)N(c1cccnc1)C2=O (stereo not shown) [Compound 32] | >2.0 |
| COc1ccc(N2C(=O)c3[nH]nc(CC(C)C)c3C2c2ccsc2)cc1 (stereo not shown) [Compound S3] | >7.9 |
| COc1ccc(N2C(=O)c3[nH]nc(CC(C)C)c3C2c2nccs2)cc1 (stereo not shown) [Compound S5] | >2.5 |
| CC(C)Cc1n[nH]c2c1C(c1ccc(F)cc1)N(c1ccc3c(c1)OCCO3)C2=O (stereo not shown) [Compound 45] | 7.9 |
| COc1ccc(N2C(=O)c3[nH]nc(CC(C)C)c3C2C2CCCC2)cc1 (stereo not shown) [Compound 53] | 1.6 |
| COc1ccc(N2C(=O)c3[nH]nc(CC(C)C)c3C2c2ccccn2)cc1 (stereo not shown) [Compound S7] | >1.6 |
| COc1ccc(N2C(=O)c3[nH]nc(CC(C)C)c3C2c2ccc(F)cc2C)cc1 (stereo not shown) [Compound 64, 4-(4-fluoro-2-methylphenyl)-3-isobutyl-5-(4-methoxyphenyl)-4,5-dihydropyrrolo[3,4-c]pyrazol-6(1H)-one] | 50.2 |
| COc1ccc(N2C(=O)c3[nH]nc(CC(C)C)c3C2c2cccs2)cc1 (stereo not shown) [Compound S2] | >6.3 |
| COc1ccc(N2C(=O)c3[nH]nc(-c4ccc5c(c4)CCC5)c3C2c2ccc(F)cc2)cc1 (stereo not shown) [Compound 16] | 1.6 |

Same assay, conditions: THP-1 CC50 / L. donovani EC50 (THP-1)

| Structure (SMILES) | SI Host cell potency/L. donovani potency |
| --- | --- |
| CC(C)Cc1n[nH]c2c1C(c1ccccc1Cl)N(c1ccc(C(C)(C)C)cc1)C2=O (stereo not shown) [CMLD011047] | 2.5 |
| COc1cccc(N2C(=O)c3[nH]nc(CC(C)C)c3C2C2CCCCC2)c1 (stereo not shown) [CMLD011044] | 7.9 |
| COc1ccc(N2C(=O)c3[nH]nc(CC(C)C)c3[C@H]2c2ccccc2Br)cn1 [CMLD010977] | 12.6 |
| COc1ccc(N2C(=O)c3[nH]nc(CC(C)C)c3C2C2CCCCC2)cc1F (stereo not shown) [CMLD011090] | 10.0 |
| CC(C)Cc1n[nH]c2c1C(c1cccc(C(F)(F)F)c1)N(c1ccc(-n3ccnc3)cc1)C2=O (stereo not shown) [CMLD010924] | 0.8 |
| COc1ccc(N2C(=O)c3[nH]nc(CC(C)C)c3[C@H]2c2ccc(F)cc2)cc1 [CMLD013629] | 2.5 |
| CC(=O)OCC(CO)N1C(=O)c2[nH]nc(CC(C)C)c2C1c1ccc(F)cc1 (stereo not shown) [CMLD011037] | 1.0 |
| CC(C)Cc1nn(-c2ccc(OC(F)(F)F)cc2)c2c1C(c1ccccc1)NC2=O (stereo not shown) [CMLD009657] | 4.0 |

Same assay, conditions: rows whose L. donovani EC50 is in THP-1 cells (c)

| Structure (SMILES) | SI Host cell potency/L. donovani potency |
| --- | --- |
| COc1ccc(N2C(=O)c3[nH]nc(-c4ccc(OCc5ccccc5)cc4)c3C2c2ccc(F)cc2)cc1 (stereo not shown) [BUCMD00811] | 1.6 |
| COc1cccc(N2C(=O)c3[nH]nc(CC(C)C)c3C2c2ccc(F)cc2)c1 (stereo not shown) [CMLD010895] | 2.5 |
| COc1ccc(N2C(=O)c3[nH]nc(CC(C)C)c3C2C2CCCCC2)cc1 (stereo not shown) [CMLD010892] | 3.2 |
| COc1ccc(N2C(=O)c3[nH]nc(CC(C)C)c3C2c2ccncn2)cc1 (stereo not shown) [CMLD010887] | 1.0 |
| COc1ccc(N2C(=O)c3[nH]nc(-c4ccc(CC(C)C)cc4)c3C2c2ccc(F)cc2)cc1 (stereo not shown) [CMLD010979] | 2.0 |
| COc1ccc(N2C(=O)c3[nH]nc(CC(C)C)c3C2c2ccncc2)cc1 (stereo not shown) [CMLD011142] | 1.0 |
| COc1ccc(N2C(=O)c3[nH]nc(CC(C)C)c3C2c2cccnc2Cl)cc1 (stereo not shown) [CMLD011559] | <0.2 |
| COC(=O)c1ccc(C2c3c(CC(C)C)n[nH]c3C(=O)N2c2ccc(OC)cc2)cc1 (stereo not shown) [CMLD011034] | 1.6 |
| COc1ccc(N2C(=O)c3[nH]nc(CC(C)C)c3C2c2ccccc2F)cc1 (stereo not shown) [CMLD011102] | 9.9 |
| COc1ccccc1N1C(=O)c2[nH]nc(CC(C)C)c2C1c1ccc(F)cc1 (stereo not shown) [CMLD011046] | >2.5 |
| CC(C)Cc1n[nH]c2c1C(c1ccc(F)cc1)N(c1ccc(F)cc1F)C2=O (stereo not shown) [CMLD011097] | 3.2 |
| CC(C)Cc1n[nH]c2c1C(c1ccc(F)cc1)N(c1ccccc1N(C)C)C2=O (stereo not shown) [CMLD011499] | 3.2 |
| CC(C)Cc1n[nH]c2c1C(c1ccc(F)cc1)N(c1ccc(N(C)C)cc1)C2=O (stereo not shown) [CMLD011039] | 39.8 |
| COc1cc(N2C(=O)c3[nH]nc(CC(C)C)c3C2c2ccccc2Cl)cc(OC)c1OC (stereo not shown) [CMLD011116] | 1.3 |
| CC(C)Cc1n[nH]c2c1C(c1ccccc1Cl)N(CCN1CCCC1)C2=O (stereo not shown) [BUCMD00799] | >2.5 |
| COc1ccc(N2C(=O)c3[nH]nc(CC(C)C)c3C2c2ccc(Cl)cc2)cc1 (stereo not shown) [CMLD011096] | 4.0 |
| COc1ccc(N2C(=O)c3[nH]nc(CC(C)C)c3C2c2ccc(F)cc2F)cc1 (stereo not shown) [CMLD011079] | 12.6 |
| Cc1ccc(CN2C(=O)c3[nH]nc(CC(C)C)c3C2c2ccc(F)cc2)o1 (stereo not shown) [CMLD011092] | >2.5 |
| CC(C)Cc1n[nH]c2c1C(C1CCCCC1)N(c1ccc(C(C)(C)C)cc1)C2=O (stereo not shown) [CMLD011042] | 20.0 |
| COc1ccc(N2C(=O)c3[nH]nc(CC(C)C)c3C2c2ccncc2Cl)cc1 (stereo not shown) [CMLD011496] | 2.0 |
| COc1ccc(N2C(=O)c3[nH]nc(CC(C)C)c3C2c2cccc(C(F)(F)F)c2)cc1F (stereo not shown) [CMLD011106] | 4.0 |

| Structure (SMILES) | SI Host cell potency/L. donovani potency |
| --- | --- |
| COc1cc(N2C(=O)c3[nH]nc(CC(C)C)c3C2c2ccc(F)cc2)cc(OC)c1OC (stereo not shown) [CMLD010896] | 0.8 |
| CC(C)Cc1n[nH]c2c1C(c1ccc(F)cc1)N(c1ccc(Br)cc1)C2=O (stereo not shown) [CMLD010897] | 12.2 |
| CC(C)Cc1n[nH]c2c1C(c1ccc(F)cc1)N(c1ccc(C#N)cc1)C2=O (stereo not shown) [BUCMD00807] | 2.0 |
| CC(C)Cc1n[nH]c2c1C(c1cccc(Cl)c1)N(c1ccc(C(C)(C)C)cc1)C2=O (stereo not shown) [CMLD011131] | 6.3 |
| COCn1nc(CC(C)C)c2c1C(=O)N(c1ccc(OC)cc1)C2c1ccc(F)cc1 (stereo not shown) [BUCMD00813] | 2.5 |
| COc1ccc(N2C(=O)c3[nH]nc(-c4ccc(Cl)cc4Cl)c3C2c2ccc(F)cc2)cc1 (stereo not shown) [CMLD011093] | >2.5 |
| COc1ccc(N2C(=O)c3[nH]nc(CC(C)C)c3C2c2cccc(Cl)c2)cc1 (stereo not shown) [CMLD011099] | 5.0 |
| COc1ccc(N2C(=O)c3[nH]nc(CC(C)C)c3C2c2ccccc2Br)c(OC)c1 (stereo not shown) [CMLD011109] | 2.5 |
| CC(C)Cc1n[nH]c2c1C(c1cccc(Cl)c1)N(c1ccc3c(c1)OCO3)C2=O (stereo not shown) [CMLD011132] | 4.0 |
| COc1ccc(N2C(=O)c3[nH]nc(CC(C)C)c3C2C2CCCC2)cc1 (stereo not shown) [CMLD010978] | 1.6 |
| COc1cc(N2C(=O)c3[nH]nc(CC(C)C)c3C2c2cccc(C(F)(F)F)c2)cc(OC)c1OC (stereo not shown) [BUCMD00803] | 2.5 |
| COc1ccc(N2C(=O)c3[nH]nc(CC(C)C)c3C2C2CCCCC2)cn1 (stereo not shown) [CMLD010903] | 1.6 |
| COc1ccc(N2C(=O)c3[nH]nc(CC(C)C)c3C2c2cccc(Br)c2)cc1 (stereo not shown) [CMLD010891] | 3.2 |
| COc1ccc(N2C(=O)c3[nH]nc(CC(C)C)c3C2c2ccccn2)cc1 (stereo not shown) [CMLD011125] | >1.6 |
| COc1cccc(N2C(=O)c3[nH]nc(CC(C)C)c3C2c2ccccc2Cl)c1 (stereo not shown) [CMLD010881] | 2.0 |
| COc1ccc(N2C(=O)c3[nH]nc(CC(C)C)c3C2c2ncccc2Cl)cc1 (stereo not shown) [CMLD011575] | 2.0 |
| COc1ccc(N2C(=O)c3[nH]nc(CC(C)C)c3C2c2cnccc2Cl)cc1 (stereo not shown) [CMLD011579] | <0.2 |
| COc1ccc(N2C(=O)c3[nH]nc(CC(C)C)c3[C@@H]2c2ccc(F)cc2)cc1 [CMLD011128] | >25 |
| CC(C)Cc1n[nH]c2c1C(c1ccc(F)cc1)N(c1ccc3[nH]cnc3c1)C2=O (stereo not shown) [CMLD011557] | <1 |
| CO[C@H]1CC[C@H](N2C(=O)c3[nH]nc(CC(C)C)c3C2c2ccc(F)cc2)CC1 (stereo partly shown) [CMLD011036] | >2.0 |
